Experiment [1] deals with Jurkat-EBOV GP (Zaire ebolavirus (EBOV), Makona).
Experiment [2] addresses EBOV GP on recombinant EBOV-eGFP virus (Zaire ebolavirus (EBOV)). The experiment can be described thus: cell-based or functional assay.

Experimental findings from US20210403538A1 (VANDERBILT UNIVERSITY, published 2021) are described below.

B1: rEBOV-548 IgG1 (antibody, V domains shown)
VH: QVQVEESGGGVVQPGGSLRLSCAASGFMFSNYGMHWVRQAPGKGLEWMAFIRYDDSKKFYADSVKGRFTISRDNSKNTLYLQMNSLRAEDTALYYCAKELLQVYTSAWGEGHSYYYALDVWGLGTAVTVSS
VL: DIQMTQSPSSVSASVGDRVTITCRASQDISNWLAWYQQKPGKAPELLIYTASILQSGVSSRFSGSGSGTDFTLTISSLQPEDSATYYCQQGKSFPYTFGQGTKLEIK
Regarding B1, in experiment [1], the “fold increase in binding” value is ≤ 1.5 fold.

B2: EBOV-515 (antibody, V domains shown)
VH: QVQLQESGPGLVKPSQTLSLTCTVSGGSINSAGYYWTWIRQHPGKGLEWIGYIDYTGRTYYNPSLESRVIISIDTSKNHFSLRLTSVSAADTAVYYCARESSWVSELGRDNWGQGTLVTVSS
VL: EIVMTQSPATLPVSPGEGATLSCRASQSVFTNLAWYQQKPGQAPRLLIYDASTRATGIPARFSGSGSGTEFTLTISSLQSEDFAVYYCQQYNNWPRTYGQGTRVEVK
For the molecule B2, the “Neutralization, IC50 ng/mL” value in experiment [2] amounted to 1220 ng/mL.
